Measured values from several laboratories, pooled; numbers as filed in NIAID ChemDB.

Shared fields: enzyme or target tests; organism: HIV-1; protein: Integrase; measure: IC50

ICn is the concentration giving n% inhibition.

structure | strain | method | value
CC(C)=C/C=C\[C@H](C)[C@H]1CC[C@]2(C)C[C@H]3[C@@H]4C(=C[C@@H]12)COC4(O)C[C@@]3(C)O |  | strand transfer | >120 µM
Nc1ccn(C2CC(OP(=O)(O)OCC3OC(n4cnc5c(N)ncnc54)CC3OP(=O)(O)OCC3OC(n4cnc5c(=O)[nH]c(N)nc54)CC3O)C(COP(=O)(O)O)O2)c(=O)n1 |  | 3′ processing | 57 µM
COc1c(O)cc2oc(-c3ccc(O)c(O)c3)cc(=O)c2c1O |  | 3′ processing | 93.33 µM
O=C(O)C(=O)/C=C(\O)c1ccc(O)c(O)c1 |  | 3′ processing | 3.9 µM
Cc1ccc2c(c1)C(=O)c1ccccc1C2=O |  | disintegration | >40 µM
CC(=O)c1cccn1Cc1ccc(F)cc1 |  | binding | >100 µM
CC(C)=CCC[C@H](C)[C@@]1(O)CC[C@]2(C)C[C@H]3[C@H](C(=O)C[C@@]3(C)O)C(C=O)=C[C@H]21 |  | absorbance | 21.5 µM
O=C1C=CC(=O)c2c(O)ccc(O)c21 |  | strand transfer | 2.5 µM
CC(=O)Oc1cc(OC(C)=O)c(OC(C)=O)c(=O)c(OC(C)=O)c1 |  | strand transfer | 62 µM
O=C(/C=C(\O)c1ccccc1)c1ncn[nH]1 |  | strand transfer | 43 µM
Cc1ccc(C(=O)Oc2ccc(C(c3c(O)c4ccccc4oc3=O)c3c(O)c4ccccc4oc3=O)cc2)cc1 |  | 3′ processing | 0.5 µM
CCNc1[nH]c(=O)n(O)c(=O)c1C(=O)NCc1cccc(F)c1 | IIIB | strand transfer | 10 µM
CCN(CC)Cc1cc(Nc2ccnc3cc(Cl)ccc23)ccc1O |  | 3′ processing / substrate cleavage | >100 µM
O=C(/C=C/c1ccc(O)c(O)c1)OCCc1ccccc1 |  | strand transfer | 19 µM
COc1cc2c(cc1OC)C(=O)N1CSCC1C(=O)S2 | RF | 3′ processing | 650 µM
Cc1cn(C2CC(O)C(COP(=O)(O)OC3CC(n4ccc(N)nc4=O)OC3COP(=O)(O)O)O2)c(=O)[nH]c1=O |  | strand transfer | 6 µM
CN1C(=O)C(=O)/C(=C(\O)c2ccccn2)C1c1cccc(Cl)c1 |  | strand transfer | >100 µM
O=[N+]([O-])c1cccc(S(=O)(=O)c2ccc(F)c([N+](=O)[O-])c2)c1 |  | strand transfer | >100 µM
COC(=O)/C=C/c1ccccc1 |  | strand transfer | >100 µM
CCN(CC)CCCC(C)Nc1ccnc2cc(Cl)ccc12 |  | 3′ processing / substrate cleavage | 13.1 µM
Cc1cn(C2CC(OP(=O)(O)OCC3OC(n4ccc(N)nc4=O)CC3O)C(COP(=O)(O)OC3CC(n4cnc5c(=O)[nH]c(N)nc54)OC3COP(=O)(O)O)O2)c(=O)[nH]c1=O |  | 3′ processing | 40 µM
O=c1oc2ccccc2c(O)c1C(c1ccc(N(CCCl)CCCl)cc1)c1c(O)c2ccccc2oc1=O |  | 3′ processing | 6.6 µM
O=c1oc2ccccc2c(O)c1C(c1ccccc1)c1c(O)c2ccccc2oc1=O |  | 3′ processing | 43 µM
COc1cccc2c1C(=O)c1c(O)c3c(c(O)c1C2=O)C[C@@](O)(C(=O)CO)C[C@@H]3O |  | strand transfer | >100 µM
O=[N+]([O-])c1cccc(S(=O)(=O)c2cccc([N+](=O)[O-])c2)c1 |  | 3′ processing | >100 µM
CS(=O)(=O)Oc1ccc(C(c2c(O)c3ccccc3oc2=O)c2c(O)c3ccccc3oc2=O)cc1 |  | 3′ processing | 23.7 µM
O=C1C=CC(=O)c2ccccc21 |  | strand transfer | >100 µM
O=c1c(O)c(-c2ccc(O)cc2)oc2cc(O)cc(O)c12 |  | 3′ processing | 97.72 µM
Nc1nc2c(ncn2C2CC(OP(=O)(O)OCC3OC(n4cnc5c(N)ncnc54)CC3O)C(COP(=O)(O)O)O2)c(=O)[nH]1 |  | 3′ processing | >100 µM
O=S(=O)(c1ccc(F)cc1)c1ccc(F)cc1 |  | strand transfer | >100 µM
O=C1Sc2ccccc2C(=O)N2CS(=O)CC12 | RF | 3′ processing | 192.5 µM
O=C(O)c1cc(-c2cn(Cc3ccc(F)cc3)cc2-c2ccccc2)n[nH]1 |  | strand transfer | >333 µM
O=[N+]([O-])c1ccccc1S(=O)(=O)c1ccccc1[N+](=O)[O-] |  | 3′ processing | >100 µM
O=C(O)/C=C/c1cc(C(=O)O)c(O)c2nc(/C=C/c3ccc(O)c(O)c3)ccc12 |  | strand transfer | 0.006 µM
O=C1c2cccc(O)c2C(=O)c2c(O)cccc21 |  | 3′ processing / substrate cleavage | >100 µM
O=C(O)C(=O)/C=C(\O)c1ccccc1O |  | 3′ processing | >100 µM
O=c1ccccc(-c2cncnc2)c1O |  | strand transfer | >1000 µM
O=c1oc2ccccc2c(O)c1C(c1ccc(OCCO)cc1)c1c(O)c2ccccc2oc1=O |  | 3′ processing | >100 µM
COC(=O)C(=O)CC(=O)c1cccn1Cc1ccc(F)cc1 |  | strand transfer | >100 µM
O=C(/C=C/c1ccc(O)c2c1[C@H](C(=O)O)[C@@H](c1ccc(O)c(O)c1)O2)O[C@H](Cc1ccc(O)c(O)c1)C(=O)O |  |  | 0.7 µM
N#C/C(=C\c1ccc(O)c(O)c1)C(N)=O |  | disintegration | >40 µM
C/C=C/C=C/[C@H]1C(C)=CC2C[C@@H](C)CC[C@@H]2[C@@]1(C)/C(O)=C1/C(=O)[C@@H](CO)N(C)C1=O |  | strand transfer | 7–15 µM
O=C(/C=C/c1ccc(O)c2c1[C@H](C(=O)O[C@H](Cc1ccc(O)c(O)c1)C(=O)O)[C@@H](c1ccc(O)c(O)c1)O2)O[C@H](Cc1ccc(O)c(O)c1)C(=O)O |  | strand transfer | 0.37 µM
C[C@@H]1O[C@@H](Oc2c(-c3ccc(O)c(O)c3)oc3cc(O)cc(O)c3c2=O)[C@H](O)[C@H](O)[C@H]1O |  | 3′ processing | 60.26 µM
O=C1Sc2ccc(Cl)cc2C(=O)N2CCSC12 | RF | 3′ processing | 128 µM
CCCCOC(=O)C(=O)CC(=O)c1cccn1Cc1ccc(F)cc1 |  | binding | 0.295 µM
COc1ccc(/C(O)=C/C(=O)C(=O)O)cc1OC |  | 3′ processing | >100 µM
Cc1cc(S(=O)(=O)/N=C(/NN)NNc2cccc(C(F)(F)F)n2)c(S)cc1Cl |  |  | 124.6 µM
Nc1ccn(C2C[C@H](O)[C@@H](COP(=O)(O)O[C@H]3[C@H](n4cnc5c(N)ncnc54)CO[C@@H]3COP(=O)(O)O)O2)c(=O)n1 |  | strand transfer | 25 µM
CC(C)(C)c1ccc(S(=O)(=O)Oc2ccc(C(c3c(O)c4ccccc4oc3=O)c3c(O)c4ccccc4oc3=O)cc2)cc1 |  | 3′ processing | 3.1 µM
Cc1ccc(Nc2nc(NS(=O)(=O)c3cc(C)c(Cl)cc3S)n(C)n2)cc1 |  |  | 15.3 µM
O=C1OC(=O)c2cc(S(=O)(=O)c3ccc4c(c3)C(=O)OC4=O)ccc21 |  | 3′ processing | 20.9 µM
Cc1ccc(S(=O)(=O)Oc2ccc(C(c3c(O)c4ccccc4oc3=O)c3c(O)c4ccccc4oc3=O)cc2)cc1 |  | 3′ processing | 3.9 µM
Nc1ccn(C2CC(OP(=O)(O)OCC3OC(n4cnc5c(=O)[nH]c(N)nc54)CC3O)C(COP(=O)(O)O)O2)c(=O)n1 |  | 3′ processing | 71 µM
O=c1oc2ccccc2c(O)c1C(c1ccccc1)c1c(O)c2ccccc2oc1=O |  | 3′ processing | 43 µM
Oc1cc(O)c2c(c1)O[C@H](c1ccc(O)c(O)c1)[C@@H](O)C2 |  | 3′ processing | <100 µM
COC(=O)C(=O)OC1(C(=O)O)C[C@@H](OC(=O)/C=C/c2ccc(O)c(O)c2)C(O)[C@H](OC(=O)/C=C/c2ccc(O)c(O)c2)C1 | NL4-3 | disintegration | 0.8 µM
CC(=O)Nc1cccc(-c2ccc(=O)c(O)c(O)c2O)c1 |  | strand transfer | 5.3 µM
O=c1cc(-c2ccc(O)c(O)c2)oc2c(O)c(O)c(O)c(O)c12 |  | 3′ processing | 0.79 µM
Cc1ccc(S(=O)(=O)c2c(C)cc(C)cc2C)cc1 |  | 3′ processing | >100 µM
O=C(Oc1ccc(C(c2c(O)c3ccccc3oc2=O)c2c(O)c3ccccc3oc2=O)cc1)c1ccc(Br)cc1 |  | 3′ processing | 1.1 µM
O=C(O)COc1ccc(S(=O)(=O)c2ccc(OCC(=O)O)c([N+](=O)[O-])c2)cc1[N+](=O)[O-] |  | strand transfer | 64.2 µM
CC(C)=C/C=C\[C@H](C)[C@H]1CC[C@]2(C)C[C@H]3[C@@H](C(=O)C[C@@]3(C)O)C(C=O)=C[C@@H]12 |  | strand transfer | >120 µM
Cc1cc(S(=O)(=O)Nc2nnc3ccc4ccccc4n23)c(S)cc1Cl |  |  | 10.4 µM
O=C1Sc2ccc(Cl)cc2C(=O)N2CS(=O)CC12 | RF | strand transfer | 240 µM
CC(=O)Oc1ccc(/C=C/C(=O)O[C@H](C(=O)O)[C@H](OC(=O)/C=C/c2ccc(OC(C)=O)c(OC(C)=O)c2)C(=O)O)cc1OC(C)=O | IIIB | strand transfer | >78 µM
Cc1cc(S(=O)(=O)/N=C(\NN)Nc2ccc(Cl)cc2)c(S)cc1Cl |  |  | 2.7 µM
CC(C)=CCC[C@H](C)[C@H]1CC[C@]2(C)C[C@H]3[C@H](C(=O)C[C@@]3(C)O)C(C=O)=C[C@@H]12 |  | absorbance | 6.7 µM
O=[N+]([O-])c1cc(S(=O)(=O)c2ccc(N(CCO)CCO)c([N+](=O)[O-])c2)ccc1N(CCO)CCO |  | strand transfer | >100 µM
O=c1ccc(-c2cccc(C(F)(F)F)c2)c(O)c(O)c1O |  | strand transfer | 7.1 µM
CC[C@@]1(O)C(=O)OCc2c1cc1n(c2=O)Cc2cc3cc4c(cc3nc2-1)OCO4 |  | 3′ processing / substrate cleavage | >100 µM
COC(=O)[C@H](COC(=O)/C=C/c1ccc(OC(C)=O)c(OC(C)=O)c1)NC(=O)/C=C/c1ccc(OC(C)=O)c(OC(C)=O)c1 |  | strand transfer | <5 µM
CCCCC[C@H]1C(C)=C[C@H]2C[C@@H](C)CC[C@@H]2[C@@]1(C)/C(O)=C1/C(=O)[C@@H](CO)N(C)C1=O |  | strand transfer | 15–20 µM

Again, the opening 8 rows:

structure | strain | method | value
CC(C)=C/C=C\[C@H](C)[C@H]1CC[C@]2(C)C[C@H]3[C@@H]4C(=C[C@@H]12)COC4(O)C[C@@]3(C)O |  | strand transfer | >120 µM
Nc1ccn(C2CC(OP(=O)(O)OCC3OC(n4cnc5c(N)ncnc54)CC3OP(=O)(O)OCC3OC(n4cnc5c(=O)[nH]c(N)nc54)CC3O)C(COP(=O)(O)O)O2)c(=O)n1 |  | 3′ processing | 57 µM
COc1c(O)cc2oc(-c3ccc(O)c(O)c3)cc(=O)c2c1O |  | 3′ processing | 93.33 µM
O=C(O)C(=O)/C=C(\O)c1ccc(O)c(O)c1 |  | 3′ processing | 3.9 µM
Cc1ccc2c(c1)C(=O)c1ccccc1C2=O |  | disintegration | >40 µM
CC(=O)c1cccn1Cc1ccc(F)cc1 |  | binding | >100 µM
CC(C)=CCC[C@H](C)[C@@]1(O)CC[C@]2(C)C[C@H]3[C@H](C(=O)C[C@@]3(C)O)C(C=O)=C[C@H]21 |  | absorbance | 21.5 µM
O=C1C=CC(=O)c2c(O)ccc(O)c21 |  | strand transfer | 2.5 µM

Two numbers with a dash give a range or band. Lines come from different laboratories, so protocols vary. Blank or dashed fields: not listed here.